Measured values from several laboratories, pooled; numbers as filed in NIAID ChemDB.

All rows: tests in culture; species: HIV-1; cell line: MT-4; read-out: EC50

An empty or dashed field is not shown. Lines come from different laboratories, so protocols vary. ECn is the concentration giving n% inhibition of infection, replication or growth.

structure | strain | mutations | method | result
c1cc(CNCCCN2CCCCC2)ccc1CCNCCCN1CCCCC1 |  |  | MTT | 0.325 µM
CC(C)CN(C[C@@H](O)[C@H](Cc1ccccc1)NC(=O)[C@H](CC(N)=O)NC(=O)c1ccc2ccccc2n1)C(=O)NC(C)(C)C | NL4-3 | PR-L10R M46I L63P | p24 | <0.2 µM
C[C@H](Cn1cnc2c(N)ncnc21)OCP(=O)(OCOC(=O)OCc1ccccc1)OCOC(=O)OCc1ccccc1 |  |  | p24 | >30 µM
O=c1[nH]cnc2c1ncn2[C@H]1CC[C@@H](CO)O1 |  |  | syncytia | 5 µM
Nc1ncnc2c1ncn2CCOCP(=O)(OCOC(=O)OCc1ccccc1)OCOC(=O)OCc1ccccc1 |  |  | p24 | >30 µM
CC(=O)Oc1ccccc1C(=O)O | IIIB |  | XTT / p24 | >1000 µM
O=C(Cc1ccc(CNCCCN2CCOCC2)cc1)NCCCN1CCOCC1 |  |  | MTT | >59.73 µM
Cc1cn([C@H]2C[C@H](N=[N+]=[N-])[C@@H](COC(=O)CCCC(=O)N3CCCN(C(=O)OC(C)(C)C)CCN(C(=O)OC(C)(C)C)CCCN(C(=O)OC(C)(C)C)CC3)O2)c(=O)[nH]c1=O |  |  | syncytia | 0.1 µM
c1cn(CCCNCCc2ccc(CCNCCCn3ccnc3)cc2)cn1 |  |  | MTT | >328 µM
CCCCC/C=C\C/C=C\CCCCCCCC(=O)OCC1=C[C@H]2[C@@H]3C(C)(C)[C@]3(OC(C)=O)[C@H](O)[C@@H](C)[C@]2(O)[C@@H]2C=C(C)C(=O)[C@@]2(O)C1 | LAV-1 |  | cytopathic effect / microscopy / visual reading | <15.6 µg/mL
CC(Cc1ccc(O)c(O)c1)C(C)Cc1ccc(O)c(O)c1 | IIIB |  | XTT / p24 | ~10 µM
CCCCCCCCCC(=O)O[C@@]12[C@H](OC(C)=O)[C@@H](C)[C@@]3(O)[C@@H](C=C(CO)C[C@]4(O)C(=O)C(C)=C[C@@H]34)[C@@H]1C2(C)C | LAV-1 |  | cytopathic effect / microscopy / visual reading | <0.0076 µg/mL
Cc1nnc(C[C@H](C[C@H](O)CN2CCN(Cc3ccc(-c4ccc(Cl)cc4)o3)C[C@H]2C(=O)NCC(F)(F)F)C(=O)N[C@H]2c3ccccc3OC[C@H]2O)o1 | NL4-3 WT |  | p24 | <0.063 µM
Cc1cn([C@H]2C=C[C@@H](COC(=O)CCCC(=O)N3CCCN(C(=O)OC(C)(C)C)CCN(C(=O)OC(C)(C)C)CCCN(C(=O)OC(C)(C)C)CC3)O2)c(=O)[nH]c1=O |  |  | syncytia | 10 µM
C[C@@H](Cn1cnc2c(N)ncnc21)OCP(=O)(OCOC(=O)OCc1ccccc1)OCOC(=O)OCc1ccccc1.O=C(O)/C=C/C(=O)O | IIIB |  | p24 | >30 µM
CC(C)(c1ncc(-c2ccc(F)cc2)o1)N1CCN(C[C@@H](O)C[C@@H](Cc2nnc(-c3ccccc3)o2)C(=O)N[C@H]2c3ccccc3OC[C@H]2O)[C@H](C(=O)NCC(F)(F)F)C1 | K-60 Clinical isolate | PR-L10I M46I I54V Q58E L63P I64V V77I V82F I84V L90M I93L | p24 | <0.008 µM
CCCCCCCCCC(=O)O[C@@H]1[C@@H](C)[C@@]2(O)C(C=C(CO)C[C@]3(O)C(=O)C(C)=CC23)C2C(C)(C)[C@@]21OC(=O)C(C)CC | LAV-1 |  | cytopathic effect / microscopy / visual reading | <7.81 µg/mL
Cc1cn([C@H]2C[C@H](N=[N+]=[N-])[C@@H](CO)O2)c(=O)[nH]c1=O |  | Didanosine-resistant (RT L74V) |  | 0.002 µM
C/C=C(/C)C(=O)O[C@]12C(C3C=C(CO)C[C@]4(O)C(=O)C(C)=CC4[C@@]3(O)[C@H](C)[C@H]1OC(C)=O)C2(C)C | LAV-1 |  | cytopathic effect / microscopy / visual reading | <125 µg/mL
O=C(N[C@H]1c2ccccc2OC[C@H]1O)[C@H](Cc1nnc(-c2ccccc2)o1)C[C@H](O)CN1CCN(Cc2ccc(-c3ccc(Cl)cc3)o2)C[C@H]1C(=O)NCC(F)(F)F | K-60 Clinical isolate | PR-L10I M46I I54V Q58E L63P I64V V77I V82F I84V L90M I93L | p24 | <0.008 µM
Nc1ncnc2c1ncn2CCOCP(=O)(OCOC(=O)OC1CCCCC1)OCOC(=O)OC1CCCCC1.O=C(O)/C=C/C(=O)O | IIIB |  | p24 | 23.1 µM
O=C(N[C@H]1c2ccccc2OC[C@H]1O)[C@H](Cc1nnco1)C[C@H](O)CN1CCN(Cc2ccc(-c3ccc(Cl)cc3)o2)C[C@H]1C(=O)NCC(F)(F)F | V-18 Clinical isolate | PR-L10I M36I N37D M46I R57K L63P A71V G73S I84V L90M I93L | p24 | <0.125 µM
O=C1N(Cc2ccc(CO)cc2)[C@H](Cc2ccccc2)[C@H](O)[C@@H](O)[C@@H](Cc2ccccc2)N1Cc1ccc(CO)cc1 | NL4-3 | PR-M46I V82T I84V | p24 | <1.5 µM
Nc1ccn([C@H]2CC[C@@H](CO)O2)c(=O)n1 |  |  | syncytia | 0.5 µM
CC(C)(c1ncc(-c2ccc(Cl)cc2)o1)N1CCN(C[C@@H](O)C[C@@H](Cc2nnco2)C(=O)N[C@H]2c3ccccc3OC[C@H]2O)[C@H](C(=O)NCC(F)(F)F)C1 | K-60 Clinical isolate | PR-L10I M46I I54V Q58E L63P I64V V77I V82F I84V L90M I93L | p24 | <0.063 µM

The first 3 rows once more:

structure	strain	mutations	method	result
c1cc(CNCCCN2CCCCC2)ccc1CCNCCCN1CCCCC1			MTT	0.325 µM
CC(C)CN(C[C@@H](O)[C@H](Cc1ccccc1)NC(=O)[C@H](CC(N)=O)NC(=O)c1ccc2ccccc2n1)C(=O)NC(C)(C)C	NL4-3	PR-L10R M46I L63P	p24	<0.2 µM
C[C@H](Cn1cnc2c(N)ncnc21)OCP(=O)(OCOC(=O)OCc1ccccc1)OCOC(=O)OCc1ccccc1			p24	>30 µM